Experiment [1] concerns HL-60 cells. The experiment can be described thus: toxicity of illudin derivatives and other agents in HL-60 cells. In kind it is cell-based, human. Conditions: Table 5.
In experiment [2] the test system is MDA-231, breast. Nature of the experiment: inhibition of thymidine incorporation after two hour exposure, MDA-231. In kind it is cell-based.
For experiment [3], the system named is HL60 cells (myeloid). The experiment can be described thus: inhibition of thymidine incorporation after two hour exposure, HL60. In kind it is cell-based, human. The following applies: myeloid leukemia cells. Background: Uptake of a labelled nucleoside into DNA is a usual measure of proliferation.
Experiment [4] concerns harvested apparently resistant Molt-4 tumors. The experiment can be described thus: in vitro resistance of harvested Molt-4 tumors. The following applies: two apparently resistant Molt-4 tumors.
For experiment [5], the system named is mdr daughter cell lines. Nature of the experiment: resistance of mdr daughter cell lines. The following applies: lines with 200 to 800 fold resistance to conventional agents.
The subject of experiment [6] is MCF-7, breast. Nature of the experiment: inhibition of thymidine incorporation after two hour exposure, MCF-7. In kind it is cell-based, human.
The subject of experiment [7] is C1498 (AML). The experiment can be described thus: colony formation zone size, C1498 (AML). In kind it is cell-based, mouse. The following applies: vs CFU-gm; compared with illudin S.
Experiment [8] concerns MCF7 ADR (GSH-transferase) cells. Nature of the experiment: sensitivity of mdr lines, MCF7 ADR. In kind it is cell-based, human. The following applies: MCF/Adr vs MCF7-wt.

For `CN(N=O)C(=N)N[N+](=O)[O-]`, the IC50 in experiment [1] was 15 µM.

Consider `CC1=C2C(=O)C(C)(C)C=C2C(=O)[C@](C)(O)C12CC2` [Dehydroilludin M], for which the selective toxicity entry in experiment [2], in experiment [3] and in experiment [6] was “selective toxicity” each time. In addition, in experiment [4], the “resistance of harvested tumors in vitro” value is on record as “no evidence of resistance”. Also, the “resistance of mdr daughter cell lines” value in experiment [5] is given as “minimal or no resistance”. The “selectivity towards AML line” value in experiment [7] was “markedly more selective towards the AML line”.

Consider `CC1=C2C(=C[C@@](C)(CO)C2O)C(=O)[C@](C)(O)C12CC2` (stereo partly shown) [Illudin S], for which the “decrease in sensitivity of daughter line” value in experiment [8] is on record as 4.2 fold. Moreover, the “resistance of harvested tumors in vitro” value in experiment [4] is recorded as “no evidence of resistance”. In experiment [5], the “resistance of mdr daughter cell lines” value is “minimal or no resistance”.

A word on the IC50: it is the point on the concentration scale where inhibition reaches its midpoint.
